Patent US20230227769A1, “Means and Methods to Improve Yeast Fermentation Efficiency” (VIB VZW, priority 2020, published 2023)

B1: AST2^N406I: mutant S. cerevisiae AST2 allele; asparagine on position 406 replaced by isoleucine (protein, listed as Saccharomyces cerevisiae)
chain: MAEKILENKDPKLEAMTVDHEVSAPKPIPVDEPTLTRVARPLRHVRHIPVKSLVFHSKHGPITFSYENKIKLPISKNKLVVQVNYVGLNPVDMKIRNGYTKPIYGEAGIGREYSGVITHVGDNLTNRWNVGDDVYGIYYHPKLAIGALQSSLLIDPRVDPILMRPKNTLSPEKAAGSLFCLGTALNLLAQLKEKDQLNTESNVLINGGTSSVGMFAIQLLKRYYKVSKKLVVVTSGNGAAVLSEHFPDLKDEIIFINYLSCRGKSSKPLRRMLDTGKVVDYDDFNTLKETEDYTQGKFNVVLDFIGGYDILSHSSSLIHAKGAYITTVGDYVGNYKKDVFDSWDNPSANARKMFGSMLWSYDYSHFYFDPNIKIIPKKNDWIHECGKLLNEGVVDCVVDKVYSWKIFKEAFSYMATQRAQGKLIMKVEGF
B2: AST1^D405I: mutant S. cerevisiae AST1 allele; aspartate on position 405 replaced by isoleucine (protein, listed as Saccharomyces cerevisiae)
chain: MAKDILKNQDPKLQAMIVEHSAPAPKEIPMDAPVLKRVARPLRHVKFIPIKSLIFHTKTGPMDFSYEKKIKTPIPKNKIVVRVSNVGLNPVDMKIRNGYTSSIYGEIGLGREYSGVITEVGENLNYAWHVGDEVYGIYYHPHLAVGCLQSSILVDPKVDPILLRPESVSAEEAAGSLFCLATGYNILNKLSKNKYLKQDSNVLINGGTSSVGMFVIQLLKRHYKLQKKLVIVTSANGPQVLQEKFPDLADEMIFIDYLTCRGKSSKPLRKMLEEKKISQYDPVEDKETILNYNEGKFDVVLDFVGGYDILSHSSSLIHGGGAYVTTVGDYVANYKEDIFDSWDNPSANARKMFGSIIWSYNYTHYYFDPNAKTASANNDWIEQCGDFLKNGTVKCVVDKVYDWKIHKEAFSYMATQRAQGKLIMNVEKF

Tested on: tolerance to mixture of inhibitors
Experiment: Small-scale fermentations in YPDX enriched with a mixture of inhibitors (HMF, furfural, vanillin, acetic acid)
Design: species or system S. cerevisiae

Molecule	fermentation capacity of TMB 3400 after insertion of the allele (YPDX enriched with a mixture of inhibitors)	additional protective effect in MD4 or GVM1 (low inhibitor levels (2.80 g/l HMF, 1.75 g/l furfural, 0.35 g/l vanillin, 4.20 g/l acetic acid))
B1	improved the fermentation capacity of TMB 3400 significantly	–
B2	–	did not appear to confer any additional protective effect
